Anti-infective test results gathered from many reports (values: NIAID ChemDB through PubChem).

Shared fields: toxicity to cultured cells; cell line: HepG2; read by: MTT; read-out: CC50

Two numbers with a dash give a range or band. Conditions beyond the fields shown may differ between rows. CCn is the concentration with n% toxicity to the cells.

smiles,result
Cc1cccc2c1C(=O)C(=O)C(C[C@@H](C)CCCCCC(F)(F)F)=C2O,>54.29 µM
Cc1c2c(c(C(=O)Nc3ccc(F)c(C(F)F)c3)n1C)CCC(C)(C)NC2=O,>30 µM
C/C=C(\C)C(=O)OC[C@]1(C)C(=O)CC[C@@]2(C)[C@@H]3CC[C@H]4C[C@@]3(CC[C@@H]21)C[C@@]4(O)CO,0.01 µM
CC1(C)CCc2c(C(=O)OCc3ccc(Cl)cc3)c(O)c3ccccc3c2O1,50 µg/mL
CC(C)C[C@@H]1NC(=O)[C@H](Cc2c[nH]c3ccccc23)NC(=O)[C@H](CCCCN)NC(=O)[C@H](CC(N)=O)NC(=O)[C@H](C(C)C)NC(=O)[C@@H](CC(C)C)NC1=O,>30 µM
CC(=O)N1CC[C@@H](NC(=O)C(=O)c2c(C)c(C(=O)Nc3ccc(F)c(C)c3)c(C)n2C)[C@H](O)C1,>30 µM
COc1cc2cc(S(=O)(=O)c3ccccc3)c3nc(C)sc3c2cc1OC,>500 µM
Cc1c2c(c(C(=O)Nc3ccnc(F)c3)n1C)CCC(C)(C)NC2=O,>30 µg/mL
Oc1ccc([C@H]2Oc3cccc(O)c3C(c3c(O)cc(O)c4c3O[C@H](c3ccc(O)c(O)c3)[C@@H](O)C4)[C@H]2O)cc1O,>120 µM
Cc1ccc(S(=O)(=O)c2c(N)c3cc(F)ccc3c3sc(C)nc23)cc1,11.3 µM
COc1ccc2nc3cc(Cl)ccc3c(NCCCCNC(=O)/C=C/c3ccc(C(C)C)cc3)c2c1,4.1 µM
N#Cc1ccc(Nc2cc(Oc3ccc(C#N)cc3)c3ccccc3n2)cc1,≥50 µg/mL
Cc1c(C(=O)Nc2ccc(F)c(F)c2)c2c(n1C)C(=O)NC(C)(C)CC2,5–30 µM
Cc1cc(NC(=O)c2c(C)c(C(=O)C(=O)Nc3ccncc3N3CCOCC3)n(C)c2C)ccc1F,>30 µM
CCN(CC)CCCN=C(Nc1ccnc2cc(Cl)ccc12)c1ccccc1,12.02 µg/mL
Cc1c(C(=O)Nc2ccc(F)c(C#N)c2)c(C)n(C)c1C(=O)C(=O)Nc1cccc(B(O)O)c1,>30 µM
Cc1nc2c(S(=O)(=O)c3ccccc3)cc3ccccc3c2s1,>125 µM
Cc1cc(NC(=O)c2c(C)c(C(=O)C(=O)N[C@H]3CCCC(F)(F)[C@@H]3O)n(C)c2C)ccc1F,>30 µM
Cc1ccc(-c2cc3nc(NC(C)C)[nH]c(=O)c3s2)cc1.O=C(O)/C=C/C(=O)O,26.9 µM
CC1(C)CCc2c(C(=O)Oc3ccc(I)cc3)c(O)c3ccccc3c2O1,100 µg/mL
Cc1cc(=O)oc2c3c(ccc12)OC(C)(C)[C@@H](OC(=O)c1ccc(Br)cc1)[C@H]3OC(=O)c1ccc(Br)cc1,60.92 µM
Cc1cc(F)cc(NC(=O)c2c3c(c(C)n2C)C(=O)NC(C)(C)CC3)c1,>30 µM
CC1(C)CCc2c(C(=O)Oc3ccccc3)c(O)c3ccccc3c2O1,12.5 µg/mL
CCN(CC)CCCC(C)Nc1c2ccc(Cl)cc2nc2ccc(OC)cc12,7.4 µM
CC(=O)Oc1c(C(=O)Oc2ccccc2)c2c(c3ccccc13)OC(C)(C)CC2,12.5 µg/mL
Cc1ccc(-c2cc3nc(NC(C)(C)C)[nH]c(=O)c3s2)cc1.Cl,24 µM
CC(C)(C)c1ccc(N2CCN(Cc3ccc([N+](=O)[O-])o3)CC2)cc1,>58 µM
N#Cc1ccc(Oc2cc(Nc3ccc(C#N)cn3)nc3ccccc23)cc1,39.96 µg/mL
CC(C)C[C@@H]1NC(=O)[C@H](Cc2ccccc2)NC(=O)[C@@H](CCCCN)NC(=O)[C@H](CC(N)=O)NC(=O)[C@H](C(C)C)NC(=O)[C@@H](CC(C)C)NC1=O,>30 µM
Cc1ccc(S(=O)(=O)c2cc3cc(F)ccc3c3sc(C)nc23)cc1,>125 µM
COc1ccc2nc3cc(Cl)ccc3c(NCCCCNC(=O)/C=C/c3ccc(F)cc3)c2c1,164.7 µM
CC(C)Nc1nc2cc(-c3ccc(Cl)cc3)sc2c(=O)[nH]1.O=C(O)/C=C/C(=O)O,25.6 µM
CC1(C)[C@H]2CC[C@@]34CC[C@@H](C[C@H]3[C@]2(C)CC[C@@H]1O)C([C@@H](O)CO)C4,13.7 µM
Cc1cc(=O)oc2c3c(ccc12)OC(C)(C)[C@@H](OC(=O)c1ccc(Cl)cc1Cl)[C@H]3OC(=O)c1ccc(Cl)cc1Cl,86.97 µM
Cc1c2c(c(C(=O)Nc3ccc(F)c(F)c3)n1C)CCC(C)(C)NC2=O,>30 µM
COc1ccc(/C=C/C(=O)O[C@H]2c3c(ccc4c(C)cc(=O)oc34)OC(C)(C)[C@H]2OC(=O)/C=C/c2ccc(OC)cc2)cc1,89.29 µM
Cc1cc(NC(=O)c2c3c(n(C)c2C)C(=O)NC(C)CC3)ccc1F,>30 µM
C/C=C(/C)C(=O)O[C@H]1c2c(ccc3c(C)cc(=O)oc23)OC(C)(C)[C@H]1OC(=O)/C(C)=C\C,23.64 µM
CCCCCC[C@H](C)CC1=C(O)c2ccccc2C(=O)C1=O,>66.58 µM
CC(C)C[C@@H]1NC(=O)[C@@H](Cc2c[nH]c3ccccc23)NC(=O)CNC(=O)[C@@H](CC(N)=O)NC(=O)[C@H](C(C)C)NC(=O)[C@@H](CC(C)C)NC1=O,>30 µM
Cc1cc(=O)oc2c3c(ccc12)OC(C)(C)[C@@H](OC(=O)c1cccc([N+](=O)[O-])c1)[C@H]3OC(=O)c1cccc([N+](=O)[O-])c1,>100 µM

Repeating the first 5 entries:

smiles	result
Cc1cccc2c1C(=O)C(=O)C(C[C@@H](C)CCCCCC(F)(F)F)=C2O	>54.29 µM
Cc1c2c(c(C(=O)Nc3ccc(F)c(C(F)F)c3)n1C)CCC(C)(C)NC2=O	>30 µM
C/C=C(\C)C(=O)OC[C@]1(C)C(=O)CC[C@@]2(C)[C@@H]3CC[C@H]4C[C@@]3(CC[C@@H]21)C[C@@]4(O)CO	0.01 µM
CC1(C)CCc2c(C(=O)OCc3ccc(Cl)cc3)c(O)c3ccccc3c2O1	50 µg/mL
CC(C)C[C@@H]1NC(=O)[C@H](Cc2c[nH]c3ccccc23)NC(=O)[C@H](CCCCN)NC(=O)[C@H](CC(N)=O)NC(=O)[C@H](C(C)C)NC(=O)[C@@H](CC(C)C)NC1=O	>30 µM